Test results reported in article PMC6941823, “A dispensable paralog of succinate dehydrogenase subunit C mediates standing resistance towards a subclass of SDHI fungicides in Zymoseptoria tritici” (PLoS Pathogens, 2019).

How the values were obtained:
[1] = tested on: SQR (SDHC / altC) of IPO323 pTet::SDHC3 transformant, induced; assay: Succinate-quinone (SQR) SDHI sensitivity assay on purified mitochondria, IPO323 pTet::SDHC3 induced; assay type: biochemical, Zymoseptoria tritici; settings: IC50 ratio compared to IPO323 values
Description: Succinate-ubiquinone oxidoreductase (SQR) inhibition assays were performed on mitochondrial extracts from a panel of strains that were (i) either carrying a unique C-subunit encoding gene (ZtSDHC1, ZtSDHC1_A84I or Zt-SDHC3), or (ii) carrying two C-subunit encoding genes ZtSDHC1 and ZtSDHC3 (Table 1).
Biomass production, mitochondrial extraction and purification were performed as described in [14]. Succinate: ubiquinone/DCPIP sensitivity tests were performed as described in [14] with minor modification.

[2] = tested on: Zymoseptoria tritici progeny isolates; assay type: cell-based; settings: for phenotype flag in column R (resistant): 1 = resistant; for Phenotype resistant (R) flag: fluopyram 10 mg.L^-1 agar, 1 in R column; for phenotype flag, resistant (R) column: growth on fluopyram 10 mg.L^-1 agar; for phenotype flag, resistant (R) column / Phenotyping Growth Fluopyram 10ppm Resistant: 1 = scored resistant; for Phenotype scored resistant (R): agar growth on fluopyram 10 mg.L^-1, 1 = scored in this class
[3] = tested on: Zymoseptoria tritici field and genetically modified strains; assay: Liquid culture assay for fungicide sensitivity determination; assay type: cell-based; settings: respective to IPO323
Description: Sensitivity towards commercial fungicides was determined for a set of 99 SHA-SDHI-naïve Z. tritici field isolates sampled in Europe between 2006 and 2009. The EC50 of these isolates was determined in liquid growth assays and the data obtained compared for each possible pair of SDHI fungicides (cross-resistance (XR) plots, Fig 1). […] Comparative succinate-quinone reductase (SQR) enzyme inhibition tests were performed with mitochondria extracted from a panel of SHA-SDHIs tolerant and sensitive isolates.
In order to characterize in more depth the mechanisms driving sensitivity differences across the isolates, a subset of eight isolates carrying the ZtSDHC3 gene was analyzed for their sensitivity to SDHIs, alt-SDHC expression and splicing patterns. Liquid culture growth sensitivity tests were performed to determine EC50s for this set of isolates towards a wide range of commercial and research SDHIs (S5 Table).
Pre-culture of the inoculum and fungicide sensitivity tests were performed following previously described procedures. Different ranges of inhibitor concentrations were used for population monitoring and for the detailed phenotyping of a selected set of individual field isolates and genetically modified strains. For fungicide sensitivity monitoring of European field populations, final inhibitors concentrations were between 100 mg.L^-1 and 0.0001 mg.L^-1 with uniform 10x dilution steps (7 inhibitor concentrations + DMSO control). For refined sensitivity analysis of a smaller panel of isolates final inhibitor concentrations ranged between 0.5 mM and 0.47 nM with uniform 4x dilution factor steps (11 inhibitor concentrations+ DMSO control).

SMILES: O=C(NCCc1ncc(C(F)(F)F)cc1Cl)c1ccccc1C(F)(F)F [Fluopyram]
- RF (resistance factor), pTet Induced (SDHC / altC) [1]: 43.9
- phenotype flag in column R (resistant) ([2]; progeny isolate 26, cross IPO323XD024): 1
- phenotype flag in column R (resistant) ([2]; progeny isolate 29, cross IPO323XD024): 1
- phenotype flag in column R (resistant) ([2]; progeny isolate 30, cross IPO323XD024): 1
- phenotype flag in column R (resistant) ([2]; progeny isolate 35, cross IPO323XD024): 1
- phenotype flag in column R (resistant) ([2]; progeny isolate 36, cross IPO323XD024): 1
- phenotype flag in column R (resistant) ([2]; progeny isolate 38, cross IPO323XD024): 1
- phenotype flag in column R (resistant) ([2]; progeny isolate 41, cross IPO323XD024): 1
- phenotype flag in column R (resistant) ([2]; progeny isolate 42, cross IPO323XD024): 1
- phenotype flag in column R (resistant) ([2]; progeny isolate 44, cross IPO323XD024): 1
- phenotype flag in column R (resistant) ([2]; progeny isolate 45, cross IPO323XD024): 1
- phenotype flag in column R (resistant) ([2]; progeny isolate 47, cross IPO323XD024): 1
- phenotype flag in column R (resistant) ([2]; progeny isolate 48, cross IPO323XD024): 1
- phenotype flag in column R (resistant) ([2]; progeny isolate 52, cross IPO323XD024): 1
- phenotype flag in column R (resistant) ([2]; progeny isolate 58, cross IPO323XD024): 1
- phenotype flag in column R (resistant) ([2]; progeny isolate 61, cross IPO323XD024): 1
- phenotype flag in column R (resistant) ([2]; progeny isolate 64, cross IPO323XD024): 1
- phenotype scored resistant (R), flag 1 in R column ([2]; progeny isolate 66, cross IPO323XD024, fluopyram 10 mg.L^-1 agar): 1
- phenotype scored resistant (R), flag 1 in R column ([2]; progeny isolate 68, cross IPO323XD024, fluopyram 10 mg.L^-1 agar): 1
- phenotype scored resistant (R), flag 1 in R column ([2]; progeny isolate 69, cross IPO323XD024, fluopyram 10 mg.L^-1 agar): 1
- phenotype scored resistant (R), flag 1 in R column ([2]; progeny isolate 70, cross IPO323XD024, fluopyram 10 mg.L^-1 agar): 1
- phenotype scored resistant (R), flag 1 in R column ([2]; progeny isolate 73, cross IPO323XD024, fluopyram 10 mg.L^-1 agar): 1
- phenotype scored resistant (R), flag 1 in R column ([2]; progeny isolate 74, cross IPO323XD024, fluopyram 10 mg.L^-1 agar): 1
- phenotype scored resistant (R), flag 1 in R column ([2]; progeny isolate 76, cross IPO323XD024, fluopyram 10 mg.L^-1 agar): 1
- phenotype scored resistant (R), flag 1 in R column ([2]; progeny isolate 79, cross IPO323XD024, fluopyram 10 mg.L^-1 agar): 1
- phenotype scored resistant (R), flag 1 in R column ([2]; progeny isolate 80, cross IPO323XD024, fluopyram 10 mg.L^-1 agar): 1
- phenotype scored resistant (R), flag 1 in R column ([2]; progeny isolate 81, cross IPO323XD024, fluopyram 10 mg.L^-1 agar): 1
- phenotype scored resistant (R), flag 1 in R column ([2]; progeny isolate 85, cross IPO323XD024, fluopyram 10 mg.L^-1 agar): 1
- phenotype scored resistant (R), flag 1 in R column ([2]; progeny isolate 86, cross IPO323XD024, fluopyram 10 mg.L^-1 agar): 1
- phenotype scored resistant (R), flag 1 in R column ([2]; progeny isolate 87, cross IPO323XD024, fluopyram 10 mg.L^-1 agar): 1
- phenotype scored resistant (R), flag 1 in R column ([2]; progeny isolate 93, cross IPO323XD024, fluopyram 10 mg.L^-1 agar): 1
- phenotype scored resistant (R), flag 1 in R column ([2]; progeny isolate 94, cross IPO323XD024, fluopyram 10 mg.L^-1 agar): 1
- phenotype scored resistant (R), flag 1 in R column ([2]; progeny isolate 95, cross IPO323XD024, fluopyram 10 mg.L^-1 agar): 1
- phenotype scored resistant (R), flag 1 in R column ([2]; progeny isolate 96, cross IPO323XD024, fluopyram 10 mg.L^-1 agar): 1
- phenotype scored resistant (R), flag 1 in R column ([2]; progeny isolate 100, cross IPO323XD024, fluopyram 10 mg.L^-1 agar): 1
- phenotype scored resistant (R), flag 1 in R column ([2]; progeny isolate 101, cross IPO323XD024, fluopyram 10 mg.L^-1 agar): 1
- phenotype scored resistant (R), flag 1 in R column ([2]; progeny isolate 104, cross IPO323XD024, fluopyram 10 mg.L^-1 agar): 1
- phenotype scored resistant (R), flag 1 in R column ([2]; progeny isolate 105, cross IPO323XD024, fluopyram 10 mg.L^-1 agar): 1
- phenotype scored resistant (R), flag 1 in R column ([2]; progeny isolate 108, cross IPO323XD024, fluopyram 10 mg.L^-1 agar): 1
- Phenotype resistant (R) flag ([2]; progeny isolate 154 of cross IPO323XD024): 1
- Phenotype resistant (R) flag ([2]; progeny isolate 157 of cross IPO323XD024): 1
- Phenotype resistant (R) flag ([2]; progeny isolate 159 of cross IPO323XD024): 1
- Phenotype resistant (R) flag ([2]; progeny isolate 160 of cross IPO323XD024): 1
- Phenotype resistant (R) flag ([2]; progeny isolate 164 of cross IPO323XD024): 1
- Phenotype resistant (R) flag ([2]; progeny isolate 165 of cross IPO323XD024): 1
- Phenotype resistant (R) flag ([2]; progeny isolate 167 of cross IPO323XD024): 1
- Phenotype resistant (R) flag ([2]; progeny isolate 170 of cross IPO323XD024): 1
- Phenotype resistant (R) flag ([2]; progeny isolate 171 of cross IPO323XD024): 1
- Phenotype resistant (R) flag ([2]; progeny isolate 172 of cross IPO323XD024): 1
- Phenotype resistant (R) flag ([2]; progeny isolate 178 of cross IPO323XD024): 1
- Phenotype resistant (R) flag ([2]; progeny isolate 179 of cross IPO323XD024): 1
- Phenotype resistant (R) flag ([2]; progeny isolate 180 of cross IPO323XD024): 1
- Phenotype resistant (R) flag ([2]; progeny isolate 181 of cross IPO323XD024): 1
- Phenotype resistant (R) flag ([2]; progeny isolate 183 of cross IPO323XD024): 1
- Phenotype resistant (R) flag ([2]; progeny isolate 186 of cross IPO323XD024): 1
- Phenotype resistant (R) flag ([2]; progeny isolate 187 of cross IPO323XD024): 1
- Phenotype resistant (R) flag ([2]; progeny isolate 188 of cross IPO323XD024): 1
- Phenotype resistant (R) flag ([2]; progeny isolate 189 of cross IPO323XD024): 1
- phenotype flag, resistant (R) column ([2]; progeny isolate 190, cross IPO323XD024): 1
- phenotype flag, resistant (R) column ([2]; progeny isolate 191, cross IPO323XD024): 1
- phenotype flag, resistant (R) column ([2]; progeny isolate 194, cross IPO323XD024): 1
- phenotype flag, resistant (R) column ([2]; progeny isolate 196, cross IPO323XD024): 1
- phenotype flag, resistant (R) column ([2]; progeny isolate 198, cross IPO323XD024): 1
- phenotype flag, resistant (R) column ([2]; progeny isolate 199, cross IPO323XD024): 1
- phenotype flag, resistant (R) column ([2]; progeny isolate 200, cross IPO323XD024): 1
- phenotype flag, resistant (R) column ([2]; progeny isolate 202, cross IPO323XD024): 1
- phenotype flag, resistant (R) column ([2]; progeny isolate 203, cross IPO323XD024): 1
- phenotype flag, resistant (R) column ([2]; progeny isolate 204, cross IPO323XD024): 1
- phenotype flag, resistant (R) column ([2]; progeny isolate 205, cross IPO323XD024): 1
- phenotype flag, resistant (R) column ([2]; progeny isolate 206, cross IPO323XD024): 1
- phenotype flag, resistant (R) column ([2]; progeny isolate 208, cross IPO323XD024): 1
- phenotype flag, resistant (R) column ([2]; progeny isolate 212, cross IPO323XD024): 1
- phenotype flag, resistant (R) column ([2]; progeny isolate 213, cross IPO323XD024): 1
- phenotype flag, resistant (R) column ([2]; progeny isolate 214, cross IPO323XD024): 1
- phenotype flag, resistant (R) column ([2]; progeny isolate 216, cross IPO323XD024): 1
- phenotype flag, resistant (R) column ([2]; progeny isolate 219, cross IPO323XD024): 1
- phenotype flag, resistant (R) column ([2]; progeny isolate 222, cross IPO323XD024): 1
- phenotype flag, resistant (R) column ([2]; progeny isolate 226, cross IPO323XD024): 1
- Phenotype scored resistant (R) ([2]; progeny isolate 231 of cross IPO323 x D024): 1
- Phenotype scored resistant (R) ([2]; progeny isolate 232 of cross IPO323 x D024): 1
- Phenotype scored resistant (R) ([2]; progeny isolate 233 of cross IPO323 x D024): 1
- Phenotype scored resistant (R) ([2]; progeny isolate 234 of cross IPO323 x D024): 1
- Phenotype scored resistant (R) ([2]; progeny isolate 236 of cross IPO323 x D024): 1
- Phenotyping Growth Fluopyram 10ppm Resistant ([2]; progeny strain 1, cross IPO323XD024): 1
- Phenotyping Growth Fluopyram 10ppm Resistant ([2]; progeny strain 2, cross IPO323XD024): 1
- Phenotyping Growth Fluopyram 10ppm Resistant ([2]; progeny strain 4, cross IPO323XD024): 1
- Phenotyping Growth Fluopyram 10ppm Resistant ([2]; progeny strain 5, cross IPO323XD024): 1
- Phenotyping Growth Fluopyram 10ppm Resistant ([2]; progeny strain 6, cross IPO323XD024): 1
- Phenotyping Growth Fluopyram 10ppm Resistant ([2]; progeny strain 7, cross IPO323XD024): 1
- Phenotyping Growth Fluopyram 10ppm Resistant ([2]; progeny strain 8, cross IPO323XD024): 1
- Phenotyping Growth Fluopyram 10ppm Resistant ([2]; progeny strain 9, cross IPO323XD024): 1
- Phenotyping Growth Fluopyram 10ppm Resistant ([2]; progeny strain 11, cross IPO323XD024): 1
- Phenotyping Growth Fluopyram 10ppm Resistant ([2]; progeny strain 12, cross IPO323XD024): 1
- Phenotyping Growth Fluopyram 10ppm Resistant ([2]; progeny strain 15, cross IPO323XD024): 1
- Phenotyping Growth Fluopyram 10ppm Resistant ([2]; progeny strain 22, cross IPO323XD024): 1
- Phenotyping Growth Fluopyram 10ppm Resistant ([2]; progeny strain 24, cross IPO323XD024): 1
- Phenotyping Growth Fluopyram 10ppm Resistant ([2]; strain D024 (parent), cross IPO323XD024, 0 = not): 1
- Phenotyping Growth Fluopyram 10ppm Resistant ([2]; strain IPO323 (parent), cross IPO323XD024, 0 = not): 0
- RF LC (resistance factor in liquid culture) ([3]; strain 06STD024): 42.1
- RF LC (resistance factor in liquid culture) ([3]; strain 06STD024, listed as fluopyram): ~50
- RF LC (resistance factor in liquid culture) ([3]; strain 07STGB009): 49.2
- RF LC (resistance factor in liquid culture) ([3]; strain 07STGB009, listed as fluopyram): ~50
- RF LC (resistance factor in liquid culture) ([3]; strain 09STD041): 6.2
- RF LC (resistance factor in liquid culture) ([3]; strain 09STD053): 2.5
- RF LC (resistance factor in liquid culture) ([3]; strain 09STF011): 16.1
- RF LC (resistance factor in liquid culture) ([3]; strain 09STF037): 2.1
- RF LC (resistance factor in liquid culture) ([3]; strain 09STF112): 13.0
- RF LC (resistance factor in liquid culture) ([3]; strain 09STIR20.3): 1.9
- RF LC (resistance factor in liquid culture) ([3]; strain 09STIR20.3, listed as fluopyram): 2
- RF LC (resistance factor in liquid culture) ([3]; strain IPO323): 1
- RF LC (resistance factor in liquid culture) ([3]; strain IPO94269): 0.7

Where two headings read alike, the source gives them in different places.
